SMILES strings stand for the structures. Bounds are passed on as bounds.

The assay concerns HeLa. Nature of the assay: Selectivity index, ratio of CC50 for human HeLa cells to IC50 for Plasmodium falciparum 3D7 ring stage cells. The class given is functional.

For the compound `C1OOCOO1`, the Ratio CC50/IC50 was above 312.

(Values after ChEMBL document CHEMBL2069294, “Synthesis and evaluation of hybrid drugs for a potential HIV/AIDS-malaria combination therapy” (Bioorg Med Chem, 2012).)
